Reference: paper PMC12582335

Molecular target: SARS-CoV-2 Wuhan spike protein expressed on the surface of HEK293T cells (SARS-CoV-2 (Wuhan))
Experiment: flow cytometry on cells
Conditions: remark: other sources report otherwise

B1: recombinant collectin-11 (rCL-11), CHO-expressed, Q9BWP8 26-271 (natural protein)
chain: QPAGDDACSVQILVPGLKGDAGEKGDKGAPGRPGRVGPTGEKGDMGDKGQKGSVGRHGKIGPIGSKGEKGDSGDIGPPGPNGEPGLPCECSQLRKAIGEMDNQVSQLTSELKFIKNAVAGVRETESKIYLLVKEEKRYADAQLSCQGRGGTLSMPKDEAANGLMAAYLAQAGLARVFIGINDLEKEGAFVYSDHSPMRTFNKWRSGEPNNAYDEEDCVEMVASGGWNDVACHTTMYFMCEFDKENM
**Q.** How did the percent inhibition by L-fucose turn out when B1 was run?
**A.** > 90%
